Measurements taken from article PMC5444859.

System: influenza virus PB2 (influenza virus)
Assay: EMSA
Conditions: 5 mM MgCl2, 5 pmol protein, 0.4 pmol RNA; 5' cap added with capping enzymes (Cellscript); recombinant protein; label: 32P in cap (alpha-32P-GTP)

“AAAAAAAAAAAAAAAAAAAAAAAAAAAAAAAAAAAAAAAA [capped polyA 40mer RNA]”: binds.

For at least one entry, the source does not settle the construct or the ends of the probe.
